Results of unrelated studies side by side (data: NIAID ChemDB).

Shared fields: whole-cell or culture tests; agent: HIV-1; endpoint: EC50

Lines come from different laboratories, so protocols vary.

CC1(C)CC[C@]2(C(=O)O)CC[C@]3(C)C(=CCC4[C@@]5(C)CC[C@H](OC(=O)CCC(=O)O)C(C)(C)C5CC[C@]43C)C2C1 ; strain or isolate: IIIB ; read by: p24 ; cell line: H9 ; value: 6.1 µg/mL
Cc1cc(S(N)(=O)=O)ccc1NC(=O)COc1ccc(Cl)cc1C(=O)c1cc(Cl)cc(C#N)c1 ; changes: Wild type ; read by: β-galactosidase ; cell line: MAGI ; value: 0.00052 µM
O=C(CC1(O)C(=O)Nc2ccc(Br)cc21)c1ccc(F)cc1 ; strain or isolate: IIIB ; read by: cytopathic effect / syncytia ; cell line: C8166 ; value: 45.47 µM
Cc1cn([C@@H]2C[C@H](O)[C@H](CO)O2)c(=O)[nH]c1=O ; strain or isolate: LAV ; read by: RT activity ; cell line: PBMC ; value: >10 µM
CC1(C)CC[C@]2(C(=O)O)CC[C@]3(C)C(=CC[C@@H]4[C@@]5(C)CC[C@H](O)C(C)(C)[C@@H]5CC[C@]43C)[C@@H]2C1 ; strain or isolate: IIIB ; read by: p24 ; cell line: H9 ; value: 0.5 µg/mL
CC[C@H](C)[C@H](NC(=O)c1ccccc1SSc1ccccc1C(=O)N[C@H](C(=O)O)[C@@H](C)CC)C(=O)O ; strain or isolate: AZT-resistant ; read by: p24 / RT activity ; cell line: CEM ; value: 14.5 µM
C1CNCCNCC(CCOCCOCCC2CNCCNCCCNCCNC2)CNCCNC1 ; conditions: 6 d ; strain or isolate: IIIB ; read by: cytopathic effect / MTT ; cell line: MT-4 ; value: 9.25 µM
CC(C)(C)C(=O)SCCOP(=O)(OCCSC(=O)C(C)(C)C)OC[C@H]1CC[C@@H](n2cnc3c(N)ncnc32)O1 ; strain or isolate: LAV ; read by: RT activity ; cell line: PBMC ; value: 0.002 µM
CC(C)Nc1cccnc1N1CCN(C(=O)c2cc3cc(NS(C)(=O)=O)ccc3[nH]2)CC1 ; changes: RT-L100I ; strain or isolate: NNRTI-resistant ; read by: cytopathic effect ; cell line: CEM ; value: 2.88 µM
C[C@H]1[C@H](C)CC[C@]2(C(=O)O)CC[C@]3(C)C(=CC[C@@H]4[C@@]5(C)CC[C@H](O)C(C)(C)[C@@H]5CC[C@]43C)[C@H]12 ; strain or isolate: IIIB ; read by: p24 ; cell line: H9 ; value: 2 µg/mL
Cc1c(O)cccc1C(=O)N[C@@H](CSc1ccccc1)[C@H](O)CN1C[C@H]2CCCC[C@H]2C[C@H]1C(=O)NC(C)(C)C ; strain or isolate: HXB2 WT ; cell line: MT-4 ; value: 0.026 µM
C1CNCCNCCCNCCNC1 ; conditions: 6 d ; strain or isolate: IIIB ; read by: cytopathic effect / MTT ; cell line: MT-4 ; value: >67.9 µM
Nc1nc(=O)n([C@@H]2CS[C@H](CO)O2)cc1F ; strain or isolate: LAV ; read by: RT activity ; cell line: PBMC ; value: 0.008 µM
Cc1cn([C@@H]2O[C@H](CO[Si](C)(C)C(C)(C)C)C3(OS(=O)(=O)C=C3N)[C@H]2O[Si](C)(C)C(C)(C)C)c(=O)n(C)c1=O ; strain or isolate: IIIB WT ; read by: cytopathic effect ; cell line: CEM ; value: 0.058 µM
Cc1cn([C@@H]2CC[C@H](CO)O2)c(=O)[nH]c1=O ; strain or isolate: LAV ; read by: RT activity ; cell line: PBMC ; value: >100 µM
CC[C@H]1C(=O)Nc2ccc(F)cc2N1C(=O)OC(C)C ; changes: RT-Y181C ; strain or isolate: NNRTI-resistant ; read by: cytopathic effect ; cell line: CEM ; value: 0.086 µM
Cc1cccc(C(=O)CC2(O)C(=O)Nc3ccccc32)c1 ; strain or isolate: IIIB ; read by: cytopathic effect / syncytia ; cell line: C8166 ; value: 178 µM
CCC(C)(CC(=O)O)CC(=O)O[C@H]1CC[C@@]2(C)C(CC[C@]3(C)C2CC=C2C4CC(C)(C)CC[C@]4(C(=O)O)CC[C@]23C)C1(C)C ; strain or isolate: IIIB ; read by: p24 ; cell line: H9 ; value: 1.1 µg/mL
O=C(CC1(O)C(=O)Nc2ccc(Cl)cc21)c1cccc([N+](=O)[O-])c1 ; strain or isolate: IIIB ; read by: cytopathic effect / syncytia ; cell line: C8166 ; value: 37.84 µM
C[C@@H]1CC[C@]2(C(=O)O)CC[C@]3(C)C(=CCC4[C@@]5(C)CC(=O)[C@H](O)C(C)(C)C5CC[C@]43C)C2[C@]1(C)O ; strain or isolate: IIIB ; read by: p24 ; cell line: H9 ; value: 20 µg/mL
Nc1nc(=O)n([C@@H]2CC[C@H](CO)O2)cc1Cl ; strain or isolate: LAV ; read by: RT activity ; cell line: PBMC ; value: >100 µM
O=C(CC1(O)C(=O)Nc2ccccc21)c1ccc(F)cc1 ; strain or isolate: IIIB ; read by: cytopathic effect / syncytia ; cell line: C8166 ; value: 216 µM
Nc1ccn([C@@H]2C=C[C@H](CO)O2)c(=O)n1 ; strain or isolate: LAV ; read by: RT activity ; cell line: PBMC ; value: 1 µM
CCCc1cc(=O)oc2c3c(c4c(c12)OC(C)(C)C=C4)O[C@@H](C)[C@H](C)[C@@H]3O ; strain or isolate: RF ; read by: XTT ; cell line: CEM + CEM-SS ; value: 0.3 µM
CC1(C)CC[C@]2(C(=O)O)CC[C@]3(C)C(=CCC4[C@@]5(C)CC[C@H](OC(=O)C(C)(C)CC(=O)O)C(C)(C)C5CC[C@]43C)C2C1 ; strain or isolate: IIIB ; read by: p24 ; cell line: H9 ; value: 1.5 µg/mL
COc1ccccc1C(=O)CC1(O)C(=O)Nc2ccc(Cl)cc21 ; changes: K103N ; read by: p24 / ELISA ; cell line: C8166 ; value: 75.33 µM
CC1(C)CC[C@]2(C(=O)O)CC[C@]3(C)C(=CCC4[C@@]5(C)CCC(=O)C(C)(C)C5CC[C@]43C)C2C1 ; strain or isolate: IIIB ; read by: p24 ; cell line: H9 ; value: 0.11 µg/mL
Cc1nc(COc2ccc(C[C@H](NC(=O)O[C@H]3CO[C@H]4OCC[C@H]43)[C@H](O)CN(CC(C)C)S(=O)(=O)c3ccc4c(c3)OCO4)cc2)cs1 ; strain or isolate: HXB2 WT ; cell line: MT-4 ; value: <0.00085 µM
O=C(CC1(O)C(=O)Nc2ccccc21)c1cccc(Br)c1 ; strain or isolate: IIIB ; read by: cytopathic effect / syncytia ; cell line: C8166 ; value: 227 µM
Cc1cn([C@@H]2C[C@@H](O)[C@H](CO)O2)c(=O)[nH]c1=O ; strain or isolate: LAV ; read by: RT activity ; cell line: PBMC ; value: >200 µM
CC(C)CN(C[C@@H](O)[C@H](Cc1ccccc1)NC(=O)O[C@H]1CCOC1)S(=O)(=O)c1ccc(N)cc1 ; strain or isolate: HXB2 WT ; cell line: MT-4 ; value: 0.052 µM
Nc1ncnc2c1ncn2[C@@H]1C=C[C@H](CO)O1 ; strain or isolate: LAV ; read by: RT activity ; cell line: PBMC ; value: 0.38 µM
COc1ccc(C(=O)CC2(O)C(=O)Nc3ccc(Cl)cc32)cc1OC ; strain or isolate: IIIB ; read by: cytopathic effect / syncytia ; cell line: C8166 ; value: 61.91 µM
Cc1ccnc(-c2cc(CN3CCCNCCNCCCNCC3)ccn2)c1 ; conditions: 4 d ; strain or isolate: IIIB ; read by: cytopathic effect / MTT ; cell line: MT-4 ; value: >1.13 µM
CCCc1cc(=O)oc2c3c(c4c(c12)OC(C)(C)C=C4)O[C@H](C)[C@@H](C)[C@@H]3O ; strain or isolate: RF ; read by: XTT ; cell line: CEM + CEM-SS ; value: 0.13 µM
O=C(CC1(O)C(=O)Nc2ccc(Cl)cc21)c1ccccc1Cl ; strain or isolate: IIIB ; read by: cytopathic effect / syncytia ; cell line: C8166 ; value: 1.76 µM
Nc1ncnc2c1ncn2[C@@H]1C[C@@H](F)[C@H](CO)O1 ; strain or isolate: LAV ; read by: RT activity ; cell line: PBMC ; value: >100 µM

Again, the opening 4 rows:

{"compound": "CC1(C)CC[C@]2(C(=O)O)CC[C@]3(C)C(=CCC4[C@@]5(C)CC[C@H](OC(=O)CCC(=O)O)C(C)(C)C5CC[C@]43C)C2C1", "strain or isolate": "IIIB", "read by": "p24", "cell line": "H9", "value": "6.1 µg/mL"}
{"compound": "Cc1cc(S(N)(=O)=O)ccc1NC(=O)COc1ccc(Cl)cc1C(=O)c1cc(Cl)cc(C#N)c1", "changes": "Wild type", "read by": "β-galactosidase", "cell line": "MAGI", "value": "0.00052 µM"}
{"compound": "O=C(CC1(O)C(=O)Nc2ccc(Br)cc21)c1ccc(F)cc1", "strain or isolate": "IIIB", "read by": "cytopathic effect / syncytia", "cell line": "C8166", "value": "45.47 µM"}
{"compound": "Cc1cn([C@@H]2C[C@H](O)[C@H](CO)O2)c(=O)[nH]c1=O", "strain or isolate": "LAV", "read by": "RT activity", "cell line": "PBMC", "value": ">10 µM"}

ECn: concentration that inhibits the pathogen or its effect by n%.